Biological target: HA molecule (haemagglutinin) of A/Suita/1/89 (H1N1) (influenza A virus, H1N1 subtype, strain A/Suita/1/89)
Experiment: cell-based or functional assay

monoclonal antibody C179 gave an HI (hemagglutination inhibition titer) (fold dilution of the ascites fluid) of less than 32.

Reference: patent EP0621339B1 (TAKARA SHUZO CO. LTD., dated 2001)
